Data source: PubChem BioAssay AID1224833 (University of Georgia, 2016)
The deposit covers about 12,000 reagents; below is an unselected part. Over the whole deposit, about 5,600 (46%) are marked active. 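Active calls cover z-scores past 1 in both directions, so they include lowered as well as raised rotavirus replication.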

Test: 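Human genes whose knock-down alters rotavirus replication in monkey cells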 (primary screen)
Cell system: monkey MA104 kidney cells
Knock-down reagent: siRNA pool against human genes, 50 nM
Time to read-out: 48 h knock-down before infection; read 24 h after infection
Treatment: infection with rotavirus strain RV3 two days after transfection; infectious dose for this stage not given
Measured: 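Rotavirus antigen per well by fluorescent immunoassay, normalised to non-targeting control wells on each plate and given as a standard z-score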
Direction: z-score vs non-targeting control: higher = more rotavirus replication than with non-targeting control
Rule for the call: In these data the active calls have z-score vs non-targeting control at about -1 or lower, or at about 1 or higher
Meaning of the calls: active = z-score beyond 1 either way; inactive = z-score within 1 of zero

Gene	z-score vs non-targeting control	Call
MAF1 (GeneID 84232)	0.273	inactive
CCDC181 (GeneID 57821)	1.23	active
OR6C6 (GeneID 283365)	-1.52	active
SAA2 (GeneID 6289)	-0.368	inactive
RRP9 (GeneID 9136)	0.419	inactive
GTF2A1L (GeneID 11036)	-0.749	inactive
LRRC19 (GeneID 64922)	-0.757	inactive
XCR1 (GeneID 2829)	-1.2	active
TRAPPC12 (GeneID 51112)	0.449	inactive
IFNAR2 (GeneID 3455)	-1.49	active
CIMIP6 (GeneID 129852)	-1.48	active
GPAA1 (GeneID 8733)	-0.924	inactive
ZNF699 (GeneID 374879)	-0.623	inactive
HAGHL (GeneID 84264)	-0.692	inactive
OR10A3 (GeneID 26496)	-0.596	inactive
TSPAN6 (GeneID 7105)	-0.225	inactive
SCGB1A1 (GeneID 7356)	-0.371	inactive
BECN1 (GeneID 8678)	0.966	inactive
ENOSF1 (GeneID 55556)	-0.687	inactive
USF1 (GeneID 7391)	2.52	active
ZNF569 (GeneID 148266)	0.63	inactive
PCDHB10 (GeneID 56126)	-0.209	inactive
ARHGAP22 (GeneID 58504)	1.6	active
ZNF561 (GeneID 93134)	-0.156	inactive
ACAP3 (GeneID 116983)	1.17	active
BBS1 (GeneID 582)	0.758	inactive
WDR25 (GeneID 79446)	1.53	active
RUSC2 (GeneID 9853)	-0.626	inactive
SEMA3C (GeneID 10512)	-1.39	active
ARMCX5 (GeneID 64860)	-1.81	active
ABCB7 (GeneID 22)	-1.47	active
PSEN2 (GeneID 5664)	-1.81	active
CHST8 (GeneID 64377)	-0.617	inactive
SNRPB2 (GeneID 6629)	-1.19	active
ZBED3 (GeneID 84327)	0.486	inactive
CDC26 (GeneID 246184)	-0.606	inactive
CEP128 (GeneID 145508)	0.147	inactive
NCOA4 (GeneID 8031)	-0.704	inactive
GNA15 (GeneID 2769)	0.865	inactive
FAM13B (GeneID 51306)	1.39	active
RBMY1J (GeneID 378951)	-0.7	inactive
GC (GeneID 2638)	-2.06	active
RNASEK (GeneID 440400)	-0.786	inactive
BAGE3 (GeneID 85318)	-0.308	inactive
CFAP298 (GeneID 56683)	-1.5	active
ESPNL (GeneID 339768)	-0.997	inactive
KRT38 (GeneID 8687)	-2.02	active
EXOSC4 (GeneID 54512)	-0.994	inactive
THAP8 (GeneID 199745)	-0.405	inactive
RHBDL2 (GeneID 54933)	1.08	active
OR13D1 (GeneID 286365)	-0.802	inactive
GMNN (GeneID 51053)	-0.644	inactive
RPL37 (GeneID 6167)	0.282	inactive
RELL2 (GeneID 285613)	0.0818	inactive
IGF2BP3 (GeneID 10643)	2.12	active
RNASE9 (GeneID 390443)	1.58	active
ZNF571 (GeneID 51276)	-0.358	inactive
SPART (GeneID 23111)	-0.29	inactive
OTUD4 (GeneID 54726)	-2.14	active
PCDHGA5 (GeneID 56110)	1.36	active
GCSAML (GeneID 148823)	-2.36	active
LBH (GeneID 81606)	1.19	active
MRO (GeneID 83876)	1.18	active
TTC39B (GeneID 158219)	0.921	inactive
USP6 (GeneID 9098)	1.43	active
CHMP2A (GeneID 27243)	0.883	inactive
GREM2 (GeneID 64388)	-0.659	inactive
DLGAP1 (GeneID 9229)	0.692	inactive
RASSF4 (GeneID 83937)	-1.85	active
MCM7 (GeneID 4176)	-2.08	active
LANCL2 (GeneID 55915)	-1.61	active

Next part (12 carried over from the part before).
Gene	z-score vs non-targeting control	Call
PCDHGA5 (GeneID 56110)	1.36	active
GCSAML (GeneID 148823)	-2.36	active
LBH (GeneID 81606)	1.19	active
MRO (GeneID 83876)	1.18	active
TTC39B (GeneID 158219)	0.921	inactive
USP6 (GeneID 9098)	1.43	active
CHMP2A (GeneID 27243)	0.883	inactive
GREM2 (GeneID 64388)	-0.659	inactive
DLGAP1 (GeneID 9229)	0.692	inactive
RASSF4 (GeneID 83937)	-1.85	active
MCM7 (GeneID 4176)	-2.08	active
LANCL2 (GeneID 55915)	-1.61	active
CTSK (GeneID 1513)	-1.08	active
H4C4 (GeneID 8360)	0.197	inactive
ANKHD1 (GeneID 54882)	-1.42	active
SLC29A4 (GeneID 222962)	0.0358	inactive
FFAR3 (GeneID 2865)	-1.66	active
CLU (GeneID 1191)	-0.721	inactive
UTY (GeneID 7404)	-0.0204	inactive
TMEM126B (GeneID 55863)	0.185	inactive
KRTAP13-3 (GeneID 337960)	-1.13	active
KLF9 (GeneID 687)	1.38	active
RDX (GeneID 5962)	-0.513	inactive
ETV4 (GeneID 2118)	-1.01	active
LPAR6 (GeneID 10161)	1.75	active
GTPBP8 (GeneID 29083)	-1.5	active
ZNF770 (GeneID 54989)	-1.15	active
HCFC2 (GeneID 29915)	1.76	active
DHRS7 (GeneID 51635)	-1.24	active
TCEAL7 (GeneID 56849)	0.519	inactive
TCF23 (GeneID 150921)	-0.777	inactive
C7 (GeneID 730)	-1.04	active
EFHD2 (GeneID 79180)	1.1	active
WDR11 (GeneID 55717)	1.34	active
MTG2 (GeneID 26164)	0.482	inactive
TELO2 (GeneID 9894)	1.03	active
WDR83 (GeneID 84292)	0.157	inactive
FYB1 (GeneID 2533)	-0.753	inactive
MAPT (GeneID 4137)	0.0765	inactive
FAM219A (GeneID 203259)	-1.1	active
CERS4 (GeneID 79603)	-0.307	inactive
TIGD6 (GeneID 81789)	-1.02	active
SYT10 (GeneID 341359)	0.368	inactive
IGFL1 (GeneID 374918)	-0.234	inactive
CRTC1 (GeneID 23373)	-1.51	active
C16orf82 (GeneID 162083)	-0.529	inactive
SMG6 (GeneID 23293)	-0.363	inactive
PRRC2C (GeneID 23215)	-0.0497	inactive
PNPLA1 (GeneID 285848)	-0.508	inactive
SEC23A (GeneID 10484)	0.0724	inactive
GJC1 (GeneID 10052)	-2.75	active
